Measured values from several laboratories, pooled; numbers as filed in NIAID ChemDB.

Shared fields: tests in culture; species: Mycobacterium tuberculosis

ECn is the concentration giving n% inhibition of infection, replication or growth.

compound,strain or isolate,mutations,method,read-out,dose,result
CN1C(=O)OC(c2ccc(Cl)cc2)C1=O,H37Rv,-,BACTEC,MIC bound,-,>12.5 µg/mL
Cc1ccc(C(CCN(C)C)c2ccccc2)cc1,H37Ra,-,-,MIC,-,32 µg/mL
COc1c2c(c(OC)c3ccccc13)CN(c1ccccc1)C(=N)C2,H37Rv,Lux,luminescence,MIC,-,21.49 µM
CCN(CC)c1ccc2nc3ccc(N=Nc4ccc(O)cc4)cc3[n+](-c3ccccc3)c2c1.[Cl-],H37Rv,-,BACTEC,MIC bound,-,≤12.5 µg/mL
O=[N+]([O-])c1cn(C2CCCCC2O)c([N+](=O)[O-])n1,H37Rv,-,-,MIC,-,62.5 µg/mL
Clc1nc(-c2ccccc2)c2ncn(Cc3ccccc3)c2n1,H37Rv,-,BACTEC,EC50,-,<12.5 µg/mL
CN1CCC(=C2c3ccccc3CC(=O)c3sccc32)CC1,H37Ra,-,-,MIC,-,128 µg/mL
N=Nc1c(O)n(O)c2ccccc12,H37Rv,-,BACTEC,inhibition,12.8 µg/mL,27%
COCCO/N=C/c1c2c(O)c3c(O)c(C)c4c(c3c1O)C(=O)[C@@](C)(O/C=C/[C@H](OC)[C@@H](C)[C@@H](OC(C)=O)[C@H](C)[C@H](O)[C@H](C)[C@@H](O)[C@@H](C)/C=C/C=C(/C)C(=O)N2)O4,H37Rv,-,-,MIC,-,0.1 µg/mL
CCn1cc(C(=O)O)c(=O)c2cc(F)c(N3CCN(c4nnc(SCC(=O)c5ccc([N+](=O)[O-])cc5)s4)C(C)C3)c(OC)c21,H37Rv,-,broth dilution,MIC90,-,1.5 µg/mL
COc1cc(OC)nc(NC(=O)NS(=O)(=O)c2ncccc2C(=O)N(C)C)n1,ATCC35801,-,-,MIC,-,125 µM
N=c1cc2c(cn1-c1cccc(C(=O)O)c1)C(=O)c1ccccc1C2=O,H37Rv,Lux,luminescence,MIC,-,38.11 µM
COc1cccc2c1C(=O)c1c(O)c3c(c(O)c1C2=O)C[C@](O)(c1csc(-c2ccncc2)n1)C[C@H]3OC1CC(N)C(O)C(C)O1.Cl,H37Rv,-,BACTEC,MIC bound,-,>12.5 µg/mL
CCn1cc(C(=O)O)c(=O)c2cc(F)c(N3CCN(c4nnc(SCC(=O)c5ccc(N)cc5)s4)C(C)C3)c(OC)c21,H37Rv,-,broth dilution,MIC90,-,10 µg/mL
CO[C@H]1/C=C/O[C@@]2(C)Oc3c(C)c(O)c4c(c3C2=O)-c2nc(C3CCCCC3)[nH]c2C(=NC(=O)/C(C)=C\C=C\[C@H](C)[C@H](O)[C@@H](C)[C@@H](O)[C@@H](C)[C@H](OC(C)=O)[C@@H]1C)C4=O,H37Rv,-,-,MIC,-,0.001 µg/mL
Clc1nc2c(-c3cccs3)ncnc2n1Cc1ccccc1,H37Rv,-,BACTEC,EC50,-,>12.5 µg/mL
CCC[C@H]1C[C@@H]2CC[C@@H](O2)[C@H](C)C(=O)O[C@@H]([C@H](C)[C@H]2CC[C@@H](C[C@@H](CCC)N(C)C)O2)[C@H](C)[C@@H]2CC[C@@H](O2)[C@@H](C)C(=O)O1,H37Rv,-,-,MIC,-,0.55 µg/mL
c1ccc(C(Sc2nnc(-c3ccco3)o2)c2ccccc2)cc1,-,-,fluorescence,inhibition,20 µM,24%
CO[C@H]1/C=C/O[C@@]2(C)Oc3c(C)c(O)c4c(O)c(c(/C=N/N(C)c5ccccc5)c(O)c4c3C2=O)NC(=O)/C(C)=C\C=C\[C@H](C)[C@H](O)[C@@H](C)[C@@H](O)[C@@H](C)[C@H](OC(C)=O)[C@@H]1C,H37Rv,-,-,EC50,-,0.02 µg/mL
CN(C)CCOc1ccccc1Cc1ccccc1,H37Ra,-,-,MIC,-,16 µg/mL
CO[C@H]1/C=C/O[C@@]2(C)Oc3c(C)c(O)c4c(c3C2=O)-c2nc(-c3ccccc3)[nH]c2C(=NC(=O)/C(C)=C\C=C\[C@H](C)[C@H](O)[C@@H](C)[C@@H](O)[C@@H](C)[C@H](OC(C)=O)[C@@H]1C)C4=O,H37Rv,-,-,MIC,-,0.002 µg/mL
CN1C(=O)C(=O)N(CCCN2CCN(CCCN3C(=O)C(=O)N(C)C3=O)CC2)C1=O,H37Rv,-,BACTEC,MIC bound,-,>12.5 µg/mL
CCn1cc(C(=O)O)c(=O)c2cc(F)c(N3CCN(c4nnc(SCC(=O)c5ccc(C)cc5)s4)C(C)C3)c(OC)c21,H37Rv,-,broth dilution,inhibition,20 µg/mL,0%
CCCCO/N=C/c1c2c(O)c3c(O)c(C)c4c(c3c1O)C(=O)[C@@](C)(O/C=C/[C@H](OC)[C@@H](C)[C@@H](OC(C)=O)[C@H](C)[C@H](O)[C@H](C)[C@@H](O)[C@@H](C)/C=C/C=C(/C)C(=O)N2)O4,H37Rv,-,-,MIC,-,0.1 µg/mL
C=C(OCC)c1ncnc2c1ncn2Cc1ccccc1,H37Rv,-,BACTEC,EC50,-,<12.5 µg/mL
COc1c2c(c(OC)c3ccccc13)CN(c1ccc(C)cc1Br)C(=N)C2,H37Rv,Lux,luminescence,MIC,-,10.84 µM
CCN1CCC2(CC1)N=c1c(c3c4c5c(C)c(O)c3c(O)c1=NC(=O)/C(C)=C\C=C\[C@H](C)[C@H](O)[C@@H](C)[C@@H](O)[C@@H](C)[C@H](OC(C)=O)[C@H](C)[C@@H](OC)/C=C/O[C@@](C)(O5)C4=O)N2,H37Rv,-,-,MIC,-,0.009 µg/mL
CC(=O)c1ncnc2c1ncn2Cc1ccccc1,H37Rv,-,BACTEC,EC50,-,>12.5 µg/mL
CC1C(=O)CC2C(C)(C)CCCC2(C)C1(O)CCc1ccoc1,H37Rv,-,BACTEC,MIC bound,-,>12.5 µg/mL
O=[N+]([O-])c1cn2c(n1)OC(c1ccccc1)C2,H37Rv,-,-,MIC,-,0.95 µg/mL
C=CCc1ccc(O)c(OC)c1,H37Ra,-,absorbance,MIC,-,256 µg/mL
C=C(OCC)c1ncnc2c1nc(Cl)n2Cc1ccccc1,H37Rv,-,BACTEC,EC50,-,>12.5 µg/mL
COC1=CC(=O)C=C(CO)C1=O,H37Rv,-,BACTEC,inhibition,12.5 µg/mL,10%
Clc1nc(I)nc2c1ncn2Cc1ccccc1,H37Rv,-,BACTEC,EC50,-,<12.5 µg/mL
CC(=O)Nc1nnc(-c2coc3ccccc3c2=O)s1,H37Rv,-,BACTEC,MIC bound,-,>12.5 µg/mL
CCCCCCCC1(C)Cn2cc([N+](=O)[O-])nc2O1,H37Rv,-,-,MIC,-,0.0037 µg/mL
CNC(=O)NC1(C(=O)O)CC1C(C)C,H37Rv,-,resazurin,inhibition,6.25 µg/mL,-6%
CCCCCCO/N=C/c1c2c(O)c3c(O)c(C)c4c(c3c1O)C(=O)[C@@](C)(O/C=C/[C@H](OC)[C@@H](C)[C@@H](OC(C)=O)[C@H](C)[C@H](O)[C@H](C)[C@@H](O)[C@@H](C)/C=C/C=C(/C)C(=O)N2)O4,H37Rv,-,-,MIC,-,0.5 µg/mL
Clc1nc(-c2ccccc2)nc2c1ncn2Cc1ccccc1,H37Rv,-,BACTEC,EC50,-,<12.5 µg/mL
Cc1cc(C2(c3cc(C)c(O)c(Br)c3)OS(=O)(=O)c3ccccc32)cc(Br)c1O,H37Rv,-,BACTEC,inhibition,12.5 µg/mL,0%
CO/N=C/c1c2c(O)c3c(O)c(C)c4c(c3c1O)C(=O)[C@@](C)(O/C=C/[C@H](OC)[C@@H](C)[C@@H](OC(C)=O)[C@H](C)[C@H](O)[C@H](C)[C@@H](O)[C@@H](C)/C=C/C=C(/C)C(=O)N2)O4,H37Rv,-,-,EC50,-,0.05 µg/mL
CCC(O)Cn1cc([N+](=O)[O-])nc1[N+](=O)[O-],H37Rv,-,-,MIC,-,0.48 µg/mL
CN1CCC(=C2c3ccccc3C=Cc3ccccc32)CC1,H37Ra,-,-,MIC,-,16 µg/mL
Cc1cccc(Nc2nc(NNC(=O)Cc3ccccc3)nc(NNC(=O)c3ccncc3)n2)c1,-,-,BACTEC,inhibition,0.5 µM,0%
Fc1ccc(-c2nnc(CSc3nnc(-c4ccco4)o3)o2)cc1,-,-,fluorescence,inhibition,20 µM,82%
CCCCCCCCO/N=C/c1c2c(O)c3c(O)c(C)c4c(c3c1O)C(=O)[C@@](C)(O/C=C/[C@H](OC)[C@@H](C)[C@@H](OC(C)=O)[C@H](C)[C@H](O)[C@H](C)[C@@H](O)[C@@H](C)/C=C/C=C(/C)C(=O)N2)O4,H37Rv,-,-,MIC,-,>5 µg/mL
COc1c2c(c(OC)c3ccccc13)CN(c1ccccc1Br)C(=N)C2,H37Rv,Lux,luminescence,MIC,-,14.83 µM
CO[C@H]1/C=C/O[C@@]2(C)Oc3c(C)c(O)c4c(O)c(c(/C=N/OC(C(=O)O)C(C)C)c(O)c4c3C2=O)NC(=O)/C(C)=C\C=C\[C@H](C)[C@H](O)[C@@H](C)[C@@H](O)[C@@H](C)[C@H](OC(C)=O)[C@@H]1C,H37Rv,-,-,MIC,-,2 µg/mL
CN1CCCCC(n2nc(Cc3ccc(Cl)cc3)c3ccccc3c2=O)CC1,H37Rv,-,-,MIC,-,32 µg/mL
O=[N+]([O-])c1cn2c(n1)OC1(CCCC1)C2,H37Rv,-,-,MIC,-,0.03 µg/mL
O=C(O)CC[N+](=O)[O-],-,-,fluorescence,MIC,-,74 µM
COC1=C2CC(C)CC(OC)C(O)C(C)/C=C(\C)C(OC(N)=O)C(OC)/C=C\C=C(/C)C(=O)NC(=C(C=NC(C)(C)C)C1=O)C2=O,CS-R,-,-,MIC,-,12.5 µg/mL
O=[N+]([O-])c1cn2c(n1)OC(C(Cl)(Cl)Cl)C2,H37Rv,-,-,MIC,-,31.2 µg/mL
O=C1NC(=O)N(C(F)(F)F)C(F)(F)N1C(F)(F)F,H37Rv,-,BACTEC,MIC bound,-,>12.5 µg/mL
CCCCCCCCCO/N=C/c1c2c(O)c3c(O)c(C)c4c(c3c1O)C(=O)[C@@](C)(O/C=C/[C@H](OC)[C@@H](C)[C@@H](OC(C)=O)[C@H](C)[C@H](O)[C@H](C)[C@@H](O)[C@@H](C)/C=C/C=C(/C)C(=O)N2)O4,H37Rv,-,-,MIC,-,10 µg/mL
Cn1c(=O)c2c(ncn2C2C(=O)NNC2=O)n(C)c1=O,H37Rv,-,BACTEC,inhibition,12.5 µg/mL,88%
NNC(=O)c1ccncc1,ATCC35801,-,-,MIC,-,0.12 µM
CO[C@H]1/C=C/O[C@@]2(C)Oc3c(C)c(O)c4c(O)c(c(/C=N/NCCO)c(O)c4c3C2=O)NC(=O)/C(C)=C\C=C\[C@H](C)[C@H](O)[C@@H](C)[C@@H](O)[C@@H](C)[C@H](OC(C)=O)[C@@H]1C,H37Rv,-,-,EC50,-,1 µg/mL
c1coc(-c2nnc(SCc3cccc4ccccc34)o2)c1,-,-,fluorescence,MIC,-,3.3 µM
N=c1cc2c(cn1-c1ccc(C(=O)O)cc1)C(=O)c1ccccc1C2=O,H37Rv,Lux,luminescence,MIC,-,23.6 µM
Cl.c1ccc2c(c1)Oc1ccccc1N2CCN1CCCCC1,H37Rv,-,BACTEC,inhibition,12.5 µg/mL,64%
COc1nc(C)nc(NC(=O)NS(=O)(=O)c2ccccc2OCCCl)n1,ATCC35801,-,-,MIC,-,125 µM
O=C(O)c1cc2ccccc2o1,H37Rv,-,BACTEC,MIC bound,-,>6.25 µg/mL
COCCOCCO/N=C/c1c2c(O)c3c(O)c(C)c4c(c3c1O)C(=O)[C@@](C)(O/C=C/[C@H](OC)[C@@H](C)[C@@H](OC(C)=O)[C@H](C)[C@H](O)[C@H](C)[C@@H](O)[C@@H](C)/C=C/C=C(/C)C(=O)N2)O4,H37Rv,-,-,MIC,-,0.5 µg/mL
C=CC(C)(O)/C=C/C=C(\C)C(CC1OC1(C)C)OC(=O)/C(C)=C/C,H37Rv,-,BACTEC,MIC bound,-,>12.5 µg/mL
CN(C)CCC(c1ccc(Cl)cc1)c1ccccn1,H37Ra,-,-,MIC,-,64 µg/mL
Cc1cnc(N)c(C(=O)O)n1,H37Rv,-,BACTEC,MIC,-,≥12.5 µg/mL
CO[C@H]1/C=C/O[C@@]2(C)Oc3c(C)c(O)c4c(O)c(c(/C=N/OCc5ccccc5)c(O)c4c3C2=O)NC(=O)/C(C)=C\C=C\[C@H](C)[C@H](O)[C@@H](C)[C@@H](O)[C@@H](C)[C@H](OC(C)=O)[C@@H]1C,H37Rv,-,-,MIC,-,0.5 µg/mL
Cc1ccc(NCC(=O)NN)cc1,H37Rv,-,BACTEC,MIC bound,-,>12.5 µg/mL
CN/N=C/c1c2c(O)c3c(O)c(C)c4c(c3c1O)C(=O)[C@@](C)(O/C=C/[C@H](OC)[C@@H](C)[C@@H](OC(C)=O)[C@H](C)[C@H](O)[C@H](C)[C@@H](O)[C@@H](C)/C=C/C=C(/C)C(=O)N2)O4,H37Rv,-,-,EC50,-,5 µg/mL
Cc1c(O)n2ncnc2[nH]c1=O,H37Rv,-,resazurin,inhibition,6.25 µg/mL,15%
C=Cc1nc2cncnc2n1Cc1ccccc1,H37Rv,-,BACTEC,EC50,-,>12.5 µg/mL

For reference, 5 entries again:

compound | strain or isolate | mutations | method | read-out | dose | result
COc1c2c(c(OC)c3ccccc13)CN(c1ccccc1Br)C(=N)C2 | H37Rv | Lux | luminescence | MIC | - | 14.83 µM
Clc1nc(I)nc2c1ncn2Cc1ccccc1 | H37Rv | - | BACTEC | EC50 | - | <12.5 µg/mL
CC(=O)c1ncnc2c1ncn2Cc1ccccc1 | H37Rv | - | BACTEC | EC50 | - | >12.5 µg/mL
COc1cccc2c1C(=O)c1c(O)c3c(c(O)c1C2=O)C[C@](O)(c1csc(-c2ccncc2)n1)C[C@H]3OC1CC(N)C(O)C(C)O1.Cl | H37Rv | - | BACTEC | MIC bound | - | >12.5 µg/mL
Fc1ccc(-c2nnc(CSc3nnc(-c4ccco4)o3)o2)cc1 | - | - | fluorescence | inhibition | 20 µM | 82%

Lines come from different laboratories, so protocols vary. MIC bound comes from a single tested concentration. MIC50, MIC90 and the like: level of inhibition, or share of isolates inhibited. An empty or dashed field is not shown. Inhibition is in % at the dose shown (toxicity tests: loss of growth or viability).